{
  "source": "paper doi:10.1101/2025.11.18.689095",
  "about": "“Molecular mechanism by which SARS-CoV-2 Orf9b suppresses the Tom70-Hsp90 interaction to evade innate immunity” (bioRxiv, 2025)",
  "key": {"Tom70:Orf9b complex": {"system": "Tom70:Orf9b complex", "type": "binding, human Tom70; SARS-CoV-2 Orf9b", "conditions": "pH 7"}, "Tom70-Hsp90 interaction": {"system": "Tom70-Hsp90 interaction", "type": "binding, human"}},
  "data": [
    {"substance": "Orf9b: SARS-CoV-2 Orf9b (residues 1–97), co-expressed with Tom70", "values": [
      {"measurement": "association rate of Hsp90 to Tom70 in presence of Orf9b (in words)", "setting": "Tom70:Orf9b complex", "value": "significantly reduced"},
      {"measurement": "change in koff of Hsp90-Tom70 by Orf9b", "setting": "Tom70:Orf9b complex", "value": 3, "unit": "fold"},
      {"measurement": "inhibitory effect exceeds that of the Orf9bHelix", "setting": "Tom70-Hsp90 interaction", "value": 2.4, "unit": "fold"},
      {"measurement": "reduction of Hsp90 binding affinity compared to binding to free Tom70", "setting": "Tom70-Hsp90 interaction; pH 8", "value": 7.3, "unit": "fold"}
    ]}
  ]
}
